## PSTVd loop 15 mutant pool in Nicotiana benthamiana

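Three N. benthamiana plants were inoculated with the whole mutant pool. Samples came from the inoculated region at 5 days, the leaf margin at 10 and upper systemic leaves at 12.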

Region: loop 15 of PSTVd (intermediate strain), upper and lower strand joined, each 5' to 3', the first 7 letters being the upper strand, closing pairs included. Wild type: GGAAACCGCUACUAC. Varied positions (N): GGAAACCGNNNNNNC.

Numbers give reads per thousand; 0 = not seen among the reads, higher = more abundant.
Each site shows the three plants.
"Pool" is the share in the plasmid pool used as inoculum, on the same scale.
The inoculated region was read from the minus strand, the other sites from the plus strand.
Wild type was 33.9 per thousand in the pool and the most common sequence in every sample (inoculated region 202, 200, 159; leaf margin 724, 746, 710; systemic leaves 856, 883, 880).

sequence,pool,inoculated region,leaf margin,systemic leaves
GGAAACCGCAAUCCC,0.208,0.0983 / 0.129 / 0.209,0 / 0 / 0.0200,0 / 0 / 0
GGAAACCGCAAUCGC,0.144,0.0655 / 0.0643 / 0.0952,0 / 0 / 0,0 / 0 / 0
GGAAACCGCAAUCUC,0.272,0.0819 / 0.0482 / 0.152,0 / 0 / 0.0200,0 / 0 / 0
GGAAACCGCAAUGAC,0.288,0.147 / 0.0161 / 0.171,0 / 0.0223 / 0.0401,0 / 0 / 0
GGAAACCGCAAUGCC,0.160,0.197 / 0.129 / 0.152,0 / 0 / 0.0200,0 / 0 / 0
GGAAACCGCAAUGGC,0.160,0.246 / 0.305 / 0.362,0.0162 / 0.0223 / 0,0 / 0 / 0
GGAAACCGCAAUGUC,0.208,0.0983 / 0.129 / 0.0952,0.0162 / 0 / 0,0 / 0 / 0
GGAAACCGCAAUUAC,0.272,0.213 / 0.386 / 0.324,0.178 / 0.111 / 0.100,0.0161 / 0.0303 / 0.0228
GGAAACCGCAAUUCC,0.144,0.0819 / 0.241 / 0.0762,0.0162 / 0.0223 / 0.0200,0 / 0 / 0
GGAAACCGCAAUUGC,0.160,0.0655 / 0.0964 / 0.114,0 / 0.0445 / 0.0200,0 / 0 / 0
GGAAACCGCAAUUUC,0.288,0.360 / 0.450 / 0.457,0.129 / 0.0445 / 0.0401,0.0644 / 0.0454 / 0.0456
GGAAACCGCACAAAC,0.160,0.0491 / 0.0643 / 0.171,0.0162 / 0.0445 / 0,0 / 0 / 0
GGAAACCGCACAACC,0.384,0.0819 / 0.112 / 0.0571,0.0323 / 0 / 0.0200,0 / 0 / 0
GGAAACCGCACAAGC,0.208,0.213 / 0.112 / 0.228,1.05 / 0 / 0.0401,0 / 0 / 0
GGAAACCGCACAAUC,0.256,0.0983 / 0.112 / 0.0952,0 / 0 / 0.0200,0 / 0 / 0
GGAAACCGCACACAC,0.192,0.0491 / 0.112 / 0.0190,0 / 0 / 0.0200,0 / 0 / 0
GGAAACCGCACACCC,0.272,0.0655 / 0.0964 / 0.114,0 / 0.0223 / 0,0 / 0 / 0
GGAAACCGCACACGC,0.144,0.0819 / 0.0161 / 0.0952,0.0162 / 0.0223 / 0,0 / 0 / 0
GGAAACCGCACACUC,0.256,0.0819 / 0.0643 / 0.0952,0.0162 / 0 / 0.0200,0 / 0 / 0
GGAAACCGCACAGAC,0.208,0.115 / 0.0482 / 0.0762,0 / 0 / 0,0 / 0 / 0
GGAAACCGCACAGCC,0.208,0.0655 / 0.0643 / 0.0190,0.0162 / 0 / 0.0200,0.0161 / 0 / 0
GGAAACCGCACAGGC,0.240,0.115 / 0.112 / 0.133,0 / 0 / 0.0401,0 / 0 / 0
GGAAACCGCACAGUC,0.192,0.0491 / 0.0643 / 0.133,0 / 0 / 0.0601,0 / 0 / 0
GGAAACCGCACAUAC,0.288,0.311 / 0.257 / 0.514,0.113 / 0.178 / 0.0401,0.0161 / 0.0303 / 0.0684
GGAAACCGCACAUCC,0.320,0.0819 / 0.0964 / 0.0381,0 / 0 / 0,0 / 0 / 0
GGAAACCGCACAUGC,0.144,0.0819 / 0.0964 / 0.0762,0 / 0 / 0.0401,0 / 0 / 0
GGAAACCGCACAUUC,0.272,0.295 / 0.386 / 0.362,0.113 / 0.0668 / 0.0601,0.0483 / 0 / 0
GGAAACCGCACCAAC,0.224,0.0655 / 0.0321 / 0.0952,0.0162 / 0 / 0.0601,0.0161 / 0 / 0
GGAAACCGCACCACC,0.256,0.0983 / 0.177 / 0.114,0.0162 / 0.0223 / 0.0200,0.0161 / 0 / 0
GGAAACCGCACCAGC,0.272,0.147 / 0.0964 / 0.0190,0.0162 / 0 / 0,0 / 0 / 0
GGAAACCGCACCAUC,0.400,0.0819 / 0.129 / 0.133,0.0323 / 0 / 0.0200,0.0161 / 0 / 0
GGAAACCGCACCCAC,0.288,0.131 / 0.0643 / 0.0952,0 / 0 / 0.0200,0.0161 / 0 / 0
GGAAACCGCACCCCC,0.304,0.115 / 0.0643 / 0.114,0 / 0.0223 / 0.0401,0.0161 / 0 / 0
GGAAACCGCACCCGC,0.224,0.0983 / 0.0482 / 0.114,0.0162 / 0 / 0.0200,0 / 0 / 0
GGAAACCGCACCCUC,0.128,0.0983 / 0.0964 / 0.0952,0 / 0 / 0,0 / 0 / 0
GGAAACCGCACCGAC,0.192,0.164 / 0.129 / 0.114,0 / 0 / 0,0.0161 / 0 / 0
GGAAACCGCACCGCC,0.192,0.115 / 0.129 / 0.114,0.0323 / 0.0223 / 0,0 / 0 / 0
GGAAACCGCACCGGC,0.192,0.115 / 0.0482 / 0.152,0 / 0 / 0.0200,0 / 0 / 0
GGAAACCGCACCGUC,0.240,0.0819 / 0.0643 / 0.0381,0.0323 / 0.0223 / 0,0 / 0 / 0
GGAAACCGCACCUAC,0.224,0.262 / 0.273 / 0.476,0.129 / 0.178 / 0.100,0.0161 / 0 / 0
GGAAACCGCACCUCC,0.160,0.164 / 0.0161 / 0.0952,0 / 0.0223 / 0.0200,0.0161 / 0 / 0
GGAAACCGCACCUGC,0.224,0.262 / 0.225 / 0.267,0.0162 / 0 / 0.0200,0 / 0.0151 / 0
GGAAACCGCACCUUC,0.144,0.0655 / 0.145 / 0.152,0 / 0 / 0,0.0161 / 0 / 0
GGAAACCGCACGAAC,0.176,0.393 / 0.353 / 0.457,0.178 / 0.111 / 0.0601,0.0322 / 0 / 0
GGAAACCGCACGACC,0.352,0.0983 / 0.129 / 0.0571,0.0323 / 0 / 0,0 / 0 / 0
GGAAACCGCACGAGC,0.320,0.147 / 0.257 / 0.0952,0 / 0 / 0.0200,0.0161 / 0 / 0
GGAAACCGCACGAUC,0.272,0.328 / 0.369 / 0.286,0.0485 / 0.0891 / 0.120,0 / 0.0756 / 0.137
GGAAACCGCACGCAC,0.288,0.0655 / 0.0803 / 0.114,0 / 0 / 0,0 / 0 / 0
GGAAACCGCACGCCC,0.224,0.0491 / 0.0803 / 0.190,0.0162 / 0.0223 / 0.0401,0 / 0 / 0
GGAAACCGCACGCGC,0.176,0.0491 / 0.129 / 0.133,0 / 0.0223 / 0,0 / 0 / 0
GGAAACCGCACGCUC,0.224,0.0983 / 0.0643 / 0.0381,0 / 0.0223 / 0.0401,0 / 0 / 0
GGAAACCGCACGGAC,0.176,0.229 / 0.273 / 0.381,0.113 / 0.111 / 0.140,0.0483 / 0 / 0
GGAAACCGCACGGCC,0.240,0.115 / 0.112 / 0.0952,0 / 0.0445 / 0.0200,0 / 0 / 0
GGAAACCGCACGGGC,0.352,0.131 / 0.112 / 0.0952,0 / 0 / 0,0 / 0 / 0
GGAAACCGCACGGUC,0.304,0.377 / 0.418 / 0.267,0.113 / 0.0891 / 0.160,0.0161 / 0 / 0
GGAAACCGCACGUAC,0.240,0.360 / 0.386 / 0.381,0.0485 / 0.0445 / 0.120,0.0805 / 0.136 / 0.0912
GGAAACCGCACGUCC,0.112,0.0983 / 0.0161 / 0.0571,0 / 0.0223 / 0.0200,0 / 0 / 0
GGAAACCGCACGUGC,0.176,0.0655 / 0.0803 / 0.152,0.0162 / 0.0223 / 0.0601,0 / 0 / 0
GGAAACCGCACGUUC,0.256,0.508 / 0.450 / 0.400,0.0970 / 0 / 0.200,0.113 / 0.0454 / 0.0228
GGAAACCGCACUAAC,0.208,0.0819 / 0.177 / 0.114,0 / 0 / 0.0200,0 / 0 / 0
GGAAACCGCACUACC,0.128,0.0328 / 0.129 / 0.0952,0.0323 / 0 / 0.0401,0 / 0 / 0
GGAAACCGCACUAGC,0.320,0.0164 / 0.0643 / 0.0762,0.0162 / 0 / 0.0401,0 / 0 / 0
GGAAACCGCACUAUC,0.384,0.0328 / 0.193 / 0.114,0.0162 / 0 / 0.0601,0 / 0 / 0
GGAAACCGCACUCAC,0.160,0.0983 / 0.112 / 0.0571,0 / 0 / 0,0 / 0 / 0
GGAAACCGCACUCCC,0.176,0.131 / 0.0482 / 0.152,0 / 0.0223 / 0,0 / 0 / 0
GGAAACCGCACUCGC,0.224,0.0819 / 0.112 / 0.114,0 / 0 / 0,0 / 0 / 0

The last 8 entries again:

| sequence | pool | inoculated region | leaf margin | systemic leaves |
|---|---|---|---|---|
| GGAAACCGCACGUUC | 0.256 | 0.508 / 0.450 / 0.400 | 0.0970 / 0 / 0.200 | 0.113 / 0.0454 / 0.0228 |
| GGAAACCGCACUAAC | 0.208 | 0.0819 / 0.177 / 0.114 | 0 / 0 / 0.0200 | 0 / 0 / 0 |
| GGAAACCGCACUACC | 0.128 | 0.0328 / 0.129 / 0.0952 | 0.0323 / 0 / 0.0401 | 0 / 0 / 0 |
| GGAAACCGCACUAGC | 0.320 | 0.0164 / 0.0643 / 0.0762 | 0.0162 / 0 / 0.0401 | 0 / 0 / 0 |
| GGAAACCGCACUAUC | 0.384 | 0.0328 / 0.193 / 0.114 | 0.0162 / 0 / 0.0601 | 0 / 0 / 0 |
| GGAAACCGCACUCAC | 0.160 | 0.0983 / 0.112 / 0.0571 | 0 / 0 / 0 | 0 / 0 / 0 |
| GGAAACCGCACUCCC | 0.176 | 0.131 / 0.0482 / 0.152 | 0 / 0.0223 / 0 | 0 / 0 / 0 |
| GGAAACCGCACUCGC | 0.224 | 0.0819 / 0.112 / 0.114 | 0 / 0 / 0 | 0 / 0 / 0 |

Samples held 43,870 to 66,106 reads, so the smallest values rest on one or two reads.
The authors trace changes outside the varied positions to PCR and sequencing errors or to mutation in the plant; presence does not show that a variant is infectious alone.

Reference: Wu et al. 2024, doi:10.1371/journal.ppat.1012142.